Patent US20090281028A1

Experiments:
[1] = biological target: human Kv1.3 channel (human), P22001; assay: cell-based or functional assay
[2] = biological target: T1, human Kv1.1 channel (human), Q09470; assay: cell-based or functional assay
T1 chain: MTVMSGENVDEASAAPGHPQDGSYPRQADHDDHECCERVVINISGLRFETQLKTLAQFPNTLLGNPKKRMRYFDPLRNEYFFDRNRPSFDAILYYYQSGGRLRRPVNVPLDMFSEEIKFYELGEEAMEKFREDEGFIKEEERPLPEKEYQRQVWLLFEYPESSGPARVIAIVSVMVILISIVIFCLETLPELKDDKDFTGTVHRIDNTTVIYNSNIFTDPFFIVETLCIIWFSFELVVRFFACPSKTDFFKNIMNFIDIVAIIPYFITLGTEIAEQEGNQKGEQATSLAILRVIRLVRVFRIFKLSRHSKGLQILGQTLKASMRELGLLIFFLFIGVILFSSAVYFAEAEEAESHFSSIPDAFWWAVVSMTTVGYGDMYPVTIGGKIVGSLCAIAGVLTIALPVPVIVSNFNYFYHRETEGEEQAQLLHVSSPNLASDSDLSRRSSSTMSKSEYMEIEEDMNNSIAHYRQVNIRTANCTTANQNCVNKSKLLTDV

Binder	Kv1.3 IC50 (IonWorks electrophysiology) [1]	WB/IFNg IC50 (human whole blood) [1]	WB/IL-2 IC50 (human whole blood) [1]	Kv1.1 IC50 (IonWorks electrophysiology) [2]
GVIINVKCKISRQCLEPCKKRGMRFGKCMNGKCHCTPK (modifications not checked) [OSK1 A21R]	14.9 pM	0.149 nM	0.09 nM	2.61 pM
GEIINVKCKISRQCLEPCKKAGMRFGKCMNGKCHCTPK (modifications not checked) [OSK1 V2E]	36.2 pM	0.184 nM	0.097 nM	35 pM
GVIINVKCEISRQCLEPCKKAGMRFGKCMNGKCHCTPK (modifications not checked) [OSK1 K9E]	31.8 pM	0.171 nM	0.179 nM	111 pM
GVIINVKCKISRQCLEPCKKAGMRFGKCMNGRCHCTPK (modifications not checked) [OSK1 K32R]	30.8 pM	0.034 nM	0.028 nM	7.24 pM
GVIINVKCKESRQCLEPCKKAGMRFGKCMNGKCHCTPK (modifications not checked) [OSK1 I10E]	120 pM	2.74 nM	2.57 nM	33.5 pM
GVIINVKCKISRQCEEPCKKAGMRFGKCMNGKCHCTPK (modifications not checked) [OSK1 L15E]	47.5 pM	1.06 nM	0.785 nM	436 pM
EVIINVKCKISRQCLEPCKKAGMRFGKCMNGKCHCTPK (modifications not checked) [OSK1 G1E]	186 pM	1.25 nM	1.22 nM	51 pM
GVIINVKCKISRQCLEPCKKAGMREGKCMNGKCHCTPK (modifications not checked) [OSK1 F25E]	> 3330 pM	–	–	> 3330 pM
GVIINVKCKISRQCLEPCKKAGERFGKCMNGKCHCTPK (modifications not checked) [OSK1 M23E]	24.3 pM	0.666 nM	0.606 nM	10.4 pM
GVIENVKCKISRQCLEPCKKAGMRFGKCMNGKCHCTPK (modifications not checked) [OSK1 I4E]	15.7 pM	0.191 nM	0.218 nM	3.19 pM
GVIINVKCKISRQCLEPCEKAGMRFGKCMNGKCHCTPK (modifications not checked) [OSK1 K19E]	23.5 pM	–	–	13.7 pM
GVIINVKCKISRECLEPCKKAGMRFGKCMNGKCHCTPK (modifications not checked) [OSK1 Q13E]	45.9 pM	0.799 nM	1.06 nM	6.28 pM
GVIINVKCKISRQCLEPCKKAGMRFGRCMNGKCHCTPK (modifications not checked) [OSK1 K27R]	1490 pM	10.7 nM	15.1 nM	> 3330 pM
GVIINVKCKIERQCLEPCKKAGMRFGKCMNGKCHCTPK (modifications not checked) [OSK1 S11E]	> 3330 pM	16.9 nM	39.9 nM	> 3330 pM
GVIIEVKCKISRQCLEPCKKAGMRFGKCMNGKCHCTPK (modifications not checked) [OSK1 N5E]	23.4 pM	0.065 nM	0.1 nM	4.44 pM
GVIINVKCKISRQCLEPCKKAGRRFGKCMNGKCHCTPK (modifications not checked) [OSK1 M23R]	12.3 pM	0.148 nM	0.182 nM	2.01 pM
GVIINVKCKISRQCLEPCKKAGMRFGKCMRGKCHCTPK (modifications not checked) [OSK1 N30R]	18.9 pM	0.445 nM	0.405 nM	45.7 pM

Binder	Kv1.3 IC50 (IonWorks electrophysiology) [1]	WB/IFNg IC50 (human whole blood) [1]	WB/IL-2 IC50 (human whole blood) [1]	Kv1.1 IC50 (IonWorks electrophysiology) [2]
GVIINVECKISRQCLEPCKKAGMRFGKCMNGKCHCTPK (modifications not checked) [OSK1 K7E]	14.2 pM	0.068 nM	0.058 nM	< 1.52 pM
GVIINVKCKISRQCLEPCKKAGMRFGKCMNGKCRCTPK (modifications not checked) [OSK1 H34R]	13.6 pM	0.108 nM	0.092 nM	4.49 pM
GVIINVKCKISRQCLEPCKKAGMRFGKCMNGKCHCRPK (modifications not checked) [OSK1 T36R]	1310 pM	10.1 nM	9.7 nM	26.6 pM
GVIINVKCKISRQCLEPCKKAGMRFRKCMNGKCHCTPK (modifications not checked) [OSK1 G26R]	> 3330 pM	100 nM	–	> 3330 pM
GVIINVKCKISRQCLEPCKKAEMRFGKCMNGKCHCTPK (modifications not checked) [OSK1 G22E]	13.9 pM	0.164 nM	0.109 nM	2.56 pM
GVIINVKCKISEQCLEPCKKAGMRFGKCMNGKCHCTPK (modifications not checked) [OSK1 R12E]	89.7 pM	2 nM	1.79 nM	193 pM
GVIINVKCKISRQCLEPCKKAGMRFGKCRNGKCHCTPK (modifications not checked) [OSK1 M29R]	200 pM	7.68 nM	11.7 nM	1870 pM
GVIINVKCKISRQCLEPCKEAGMRFGKCMNGKCHCTPK (modifications not checked) [OSK1 K20E]	25.4 pM	–	–	5.76 pM
GVEINVKCKISRQCLEPCKKAGMRFGKCMNGKCHCTPK (modifications not checked) [OSK1 I3E]	22 pM	0.16 nM	0.12 nM	43 pM
GVIINEKCKISRQCLEPCKKAGMRFGKCMNGKCHCTPK (modifications not checked) [OSK1 V6E]	17.7 pM	0.068 nM	0.048 nM	2.43 pM
GVIINVKCKISRQCLEPCKKEGMRFGKCMNGKCHCTPK (modifications not checked) [OSK1 A21E]	7.37 pM	0.138 nM	0.117 nM	< 1.52 pM
GVIINVKCKISRQCLEPCKKAGMRFGKCMNGKCHCTRK (modifications not checked) [OSK1 P37R]	13.3 pM	0.253 nM	0.229 nM	2.01 pM
GVIINVKCKISRQCLEPCKKAGMRFGKCMNRKCHCTPK (modifications not checked) [OSK1 G31R]	22.2 pM	0.343 nM	0.314 nM	1.59 pM
GVIINVKCKISRQCLEPCKKARMRFGKCMNGKCHCTPK (modifications not checked) [OSK1 G22R]	23.7 pM	0.349 nM	0.292 nM	3.49 pM
GVIINVKCKISRQCLEPCKKAGMRRGKCMNGKCHCTPK (modifications not checked) [OSK1 F25R]	> 3330 pM	31 nM	25 nM	817 pM
GVIINVKCKISRQCLEPCKKAGMRFGKCMNGKCHCTPR (modifications not checked) [OSK1 K38R]	15 pM	0.04 nM	0.039 nM	1.84 pM
GVIINVKCKISRQCLEECKKAGMRFGKCMNGKCHCTPK (modifications not checked) [OSK1 P17E]	14.5 pM	0.947 nM	0.52 nM	1.81 pM
